Reference: PubChem BioAssay AID624099 (ICCB-Longwood, 2012)

Screen: 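Knock-downs relieving repression by E2 of an HPV18 LCR luciferase reporter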 (primary screen)
Cell system: human C33A cervical carcinoma cells (HPV-negative) stably expressing BPV1 E2 and an HPV18 LCR luciferase reporter
Knock-down reagent: siRNA pool against human genes, 40 nM
Duration: 72 h
Measured: 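HPV18 LCR reporter light per well, converted to plate-wise z-scores that exclude control wells, and averaged over triplicate plates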
Direction: mean z-score and z-score: higher = stronger reporter signal, weaker E2 silencing
Rule for the call: 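Mean z ≥ 2 together with z ≥ 2 in two or more of the three replicates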
The deposit covers about 21,000 reagents; below is a part drawn at random. 497 of them (2.4%) were called active. 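Higher z means weaker E2 silencing; only reporter increases were scored, and knock-downs that hurt cell survival may mask genuine repressor factors.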 Unmarked entries are inactive.

After knock-down of LOC283202 (retired record), the screen gave mean z-score 0.43; z-score, replicate A = 0.49; z-score, replicate B = 0.43; z-score, replicate C = 0.38.
For TAMM41, the entry reads mean z-score -0.55; z-score, replicate A = -0.59; z-score, replicate B = -0.48; z-score, replicate C = -0.57.
HMGA2 gave mean z-score 2.25 (active); z-score, replicate A = 2.73; z-score, replicate B = 1.88; z-score, replicate C = 2.14.
After knock-down of MT-ND1, the record shows mean z-score 0; z-score, replicate A = 0.23; z-score, replicate B = -0.33; z-score, replicate C = 0.09.
Depletion of ZBTB26 resulted in: mean z-score 0.74; z-score, replicate A = 0.83; z-score, replicate B = 1.16; z-score, replicate C = 0.23.
With knock-down of CPN1, the screen gave mean z-score -0.12; z-score, replicate A = -0.11; z-score, replicate B = -0.25; z-score, replicate C = 0.01.
TRAPPC13 scored mean z-score 0.25; z-score, replicate A = 0.4; z-score, replicate B = 0.44; z-score, replicate C = -0.09.
Knock-down of ARFIP2 gave: mean z-score -0.07; z-score, replicate A = -0.73; z-score, replicate B = 0.29; z-score, replicate C = 0.22.
With knock-down of SERPIND1, the record shows mean z-score -1.07; z-score, replicate A = -0.72; z-score, replicate B = -1.31; z-score, replicate C = -1.18.

No new results follow: an excerpt of the list.
TRAPPC13: mean z-score = 0.25; z-score, replicate A = 0.4; z-score, replicate B = 0.44; z-score, replicate C = -0.09
ARFIP2: mean z-score = -0.07; z-score, replicate A = -0.73; z-score, replicate B = 0.29; z-score, replicate C = 0.22

The results go on:
TAGLN3 showed mean z-score 2.46 (active); z-score, replicate A = 2.46; z-score, replicate B = 2.6; z-score, replicate C = 2.32.
With knock-down of HIRA the results were mean z-score 0.91; z-score, replicate A = 0.82; z-score, replicate B = 1.02; z-score, replicate C = 0.9.
Against SLC44A3, the values are mean z-score 1.15; z-score, replicate A = 1.08; z-score, replicate B = 1.31; z-score, replicate C = 1.08.
CCN5 gave mean z-score 0.13; z-score, replicate A = -0.09; z-score, replicate B = 0.28; z-score, replicate C = 0.21.
Against GCNT2, the values are mean z-score 0.33; z-score, replicate A = 0.33; z-score, replicate B = 0.47; z-score, replicate C = 0.19.
Knock-down of UNC93B1 gave: mean z-score -0.34; z-score, replicate A = -0.23; z-score, replicate B = -0.51; z-score, replicate C = -0.28.
For GOLGB1, the values are mean z-score 0.83; z-score, replicate A = 0.93; z-score, replicate B = 0.97; z-score, replicate C = 0.6.
CHMP7 scored mean z-score 0.34; z-score, replicate A = 0.17; z-score, replicate B = 0.14; z-score, replicate C = 0.72.
Against ESR2 the deposit lists mean z-score -0.2; z-score, replicate A = -0.39; z-score, replicate B = -0.09; z-score, replicate C = -0.12.
Silencing of DIO2 came out at: mean z-score -1.03; z-score, replicate A = -1.28; z-score, replicate B = -0.63; z-score, replicate C = -1.18.
LOC402681 (retired record) showed mean z-score 0.78; z-score, replicate A = 1.06; z-score, replicate B = 0.9; z-score, replicate C = 0.39.
LOC197317 (retired record) gave mean z-score 0.48; z-score, replicate A = 0.62; z-score, replicate B = 0.6; z-score, replicate C = 0.23.
